Anti-infective test results gathered from many reports (values: NIAID ChemDB through PubChem).

All rows: whole-cell or culture tests; agent: HIV-1; cells: MT-4; read-out: inhibition

Rows are shuffled and stem from different studies. Inhibition is in % at the dose shown (toxicity tests: loss of growth or viability).

CC[C@H](C)[C@H](NC(=O)C[C@H](O)[C@H](CC(C)C)NC(=O)[C@@H](NC(=O)[C@H](Cc1ccc(O)cc1)NC(=O)OCc1ccccc1)C(C)C)C(=O)N[C@@H](Cc1ccccc1)C(=O)O ; method: syncytia ; tested at: 40 µM ; result: 0%
COc1ccc(-c2cc(-c3ccc4ccc5cccc6ccc3c4c56)c(C#N)c(N)n2)cc1 ; strain: IIIB ; method: ELISA / antigen ; tested at: 100 µM ; result: <30%
Nc1ncnc2c1ncn2[C@@H]1O[C@H](CO)[C@@H]1O ; method: antigen ; tested at: 100 µg/mL ; result: >99.9%
CC[C@H](NC(=O)[C@@H](NC(=O)[C@H](Cc1c[nH]c2ccccc12)NC(=O)OCc1ccccc1)C(C)C)[C@@H](O)CC(=O)N[C@@H](C)C(=O)NC(CC(C)C)[C@@H](O)CC(=O)OC ; method: syncytia ; tested at: 40 µM ; result: 0%
CC1=C(/C=C/C=C/C=C/C=C/C(=O)OC[C@H]2O[C@@H](n3ccc(N)nc3=O)CS2)C(C)(C)CCC1 ; strain: BRU ; method: syncytia ; tested at: 100 µM ; result: 100%
Nc1ncnc2c1ncn2[C@@H]1O[C@H](CO)[C@H]1F ; method: antigen ; tested at: 10 µg/mL ; result: 50%
O=c1[nH]c(=O)n([C@H]2C[C@H](F)[C@@H](CO)O2)cc1CN1CCCCC1 ; strain: IIIB ; method: ELISA ; tested at: 100 µM ; result: 0%
CCOCSC1=N/C(=C\c2ccc3ccc4cccc5ccc2c3c45)C(=O)N1 ; strain: IIIB ; method: ELISA / antigen ; tested at: 100 µM ; result: <30%
CC(=O)Nc1ccn([C@H]2CS[C@@H](COC(C)=O)O2)c(=O)n1 ; strain: BRU ; method: syncytia ; tested at: 100 µM ; result: 100%
CNC(=O)c1cn2c(c1O)C(=O)N(Cc1ccc(F)cc1)CC2 ; strain: IIIB ; method: p24 / ELISA ; tested at: 10 µM ; result: >95%
O=c1[nH]c(=O)n([C@H]2C[C@H](F)[C@@H](CO)O2)cc1CN1CCN(Cc2ccccc2)CC1 ; strain: IIIB ; method: ELISA ; tested at: 100 µM ; result: 0%
COc1cc(-c2cc(-c3ccc4ccc5cccc6ccc3c4c56)c(C#N)c(=O)n2C2CC(OC(=O)c3ccc(C)cc3)C(COC(=O)c3ccc(C)cc3)O2)cc(OC)c1OC ; strain: IIIB ; method: ELISA / antigen ; tested at: 100 µM ; result: <30%
O=c1oc2cc(O)c(O)cc2c(O)c1-c1coc2c1c(=O)oc1cc(O)c(O)cc12 ; strain: IIIB ; method: MTT ; tested at: 0.01 µM ; result: 0%
CSc1cc(N)nc(S[C@@H](C)c2cc3c(C)coc3cn2)n1 ; strain: MF DLV-resistant (RT P236L) ; changes: RT-P236L ; method: p24 ; tested at: 0.02 µM ; result: 90%
CNC(=O)c1cn2c(c1O)C(=O)N(Cc1ccc(F)c(F)c1)CC2 ; method: p24 ; tested at: 95 µM ; result: ≤20%
Nc1ccn([C@@H]2CC=C[C@@H](CO)O2)c(=O)n1 ; strain: IIIB ; method: ELISA ; tested at: 100 µM ; result: 0%
O=C(NCCc1ccccc1)Nc1ncccn1 ; method: cytopathic effect / XTT ; tested at: 1 µg/mL ; result: 0%
CC[C@H](C)[C@H](NC(=O)C[C@H](O)[C@H](CC(C)C)NC(=O)[C@H](C)NC(=O)[C@H](CCC(=O)O)NC(C)=O)C(N)=O ; strain: IIIB ; method: ELISA / antigen ; tested at: 200 µM ; result: 10%
[N-]=[N+]=N[C@H]1[C@H](n2cnc3c(N)ncnc32)O[C@@H]1CO ; method: antigen ; tested at: 100 µg/mL ; result: 99.9%
N#Cc1cc(Cl)cc(Oc2c(Cl)ccc3c2ncn3Cc2[nH]nc3ncccc23)c1 ; changes: Y181C ; tested at: 0.32 µM ; result: >95%
CC1(C)[C@@H](O[C@H]2O[C@H](C(=O)O)[C@@H](O)[C@H](O)[C@H]2O[C@@H]2O[C@H](C(=O)O)[C@@H](O)[C@H](O)[C@H]2O)CC[C@]2(C)[C@H]3C(=O)C=C4[C@@H]5C[C@@](C)(C(=O)O)CC[C@]5(C)CC[C@@]4(C)[C@]3(C)CC[C@@H]12 ; strain: IIIB ; method: antigen ; tested at: 1200 µM ; result: 99.2%
CN1CCn2cc(C(=O)NCc3ccc(F)cc3)c(O)c2C1=O ; method: p24 ; tested at: 95 µM ; result: ≤20%
O=C(NCCc1ccccc1)Nc1cnccn1 ; method: cytopathic effect / XTT ; tested at: 10 µg/mL ; result: 100%
CCOC(=O)c1cn2c(c1O)C(=O)N(Cc1ccc(Cl)cc1)CC2 ; strain: IIIB ; method: p24 / ELISA ; tested at: 1.02 µM ; result: >95%
CC1=C(/C=C/C=C/C=C/C=C/C(=O)Nc2ccn([C@H]3CS[C@@H](CO)O3)c(=O)n2)C(C)(C)CCC1 ; strain: BRU ; method: syncytia ; tested at: 10 µM ; result: 100%
CCOC(=O)c1cn2c(c1O)C(=O)N(Cc1ccc(F)cc1)CC2 ; method: p24 ; tested at: 95 µM ; result: ≤20%
O=C1[C@@H](Cc2ccccc2)NC(=S)N1c1ccccc1 ; method: RT activity ; tested at: 10 µg/mL ; result: 63%
CCc1c(Sc2ccccc2)n(COCc2ccccc2)c(=O)[nH]c1=O ; strain: A018A ; method: p24 ; tested at: 0.026 µM ; result: 90%
C=Cc1c(C)c2cc3[nH]c(cc4nc(cc5nc(cc1[nH]2)C(C)=C5CCC(=O)OC)C(CCC(=O)OC)=C4C)c(C)c3C=C ; strain: LAV ; method: cytopathic effect ; tested at: 10 µg/mL ; result: 97%
CC(=O)N(C)CCN(C)c1nc(C(=O)NCc2ccc(F)cc2)c(O)c2ncccc12 ; method: p24 ; conditions: 50% human serum ; tested at: 0.625 µM ; result: >95%
Nc1ccn([C@@H]2C=CC[C@@H](CO)O2)c(=O)n1 ; strain: IIIB ; method: ELISA ; tested at: 100 µM ; result: 0%
COC(=O)CCC1=C(C)c2cc3[nH]c(cc4[nH]c(cc5nc(cc1n2)C(C)=C5CCC(=O)OC)c(C)c4CCC(=O)OC)c(CCC(=O)OC)c3C ; strain: LAV ; method: cytopathic effect ; tested at: 10 µg/mL ; result: 96.5%
CNC(=O)c1cn2c(c1O)C(=O)N(Cc1ccc(Cl)c(Cl)c1)CC2 ; strain: IIIB ; method: p24 / ELISA ; tested at: 1.25 µM ; result: >95%
C=Cc1c(C)c2cc3[nH]c(cc4nc(cc5nc(cc1[nH]2)C(C)=C5CCCO)C(CCCO)=C4C)c(C)c3C=C ; strain: LAV ; method: cytopathic effect ; tested at: 10 µg/mL ; result: 97%
[N-]=[N+]=N[C@H]1C[C@H](n2cc(CN3CCN(CCO)CC3)c(=O)[nH]c2=O)O[C@@H]1CO ; strain: IIIB ; method: ELISA ; tested at: 100 µM ; result: 0%
CCOC(=O)c1cn2c(c1O)C(=O)N(Cc1ccc(Cl)c(Cl)c1)CC2 ; strain: IIIB ; method: p24 / ELISA ; tested at: 0.31 µM ; result: >95%
CCOC(=O)c1cn2c(c1O)C(=O)N(Cc1cccc(Cl)c1)CC2 ; method: p24 ; tested at: 95 µM ; result: ≤20%
CCc1c(C)c2cc3[nH]c(cc4nc(c(C)c5nc(cc1[nH]2)C(C)=C5)C(CCC(=O)O)=C4C)c(C)c3CC ; strain: LAV ; method: cytopathic effect ; tested at: 10 µg/mL ; result: 97%
CC(C)C[C@H](NC(=O)[C@@H](NC(=O)[C@H](Cc1c[nH]c2ccccc12)NC(=O)C(F)(F)F)C(C)C)[C@@H](O)CC(=O)N[C@H](C(=O)N[C@H](C(=O)OCc1ccccc1)C(C)C)C(C)C ; method: syncytia ; tested at: 40 µM ; result: 0%
CCCCCCCCCCCCCCCC(=O)OC[C@H]1O[C@@H](n2cnc3c(N)ncnc32)[C@@H]1CO ; method: antigen ; tested at: 100 µg/mL ; result: 99.9%
C=Cc1c(C)c2cc3[nH+]c(c4c5[n-]c(cc6[nH+]c(cc1[n-]2)C(C)=C6CC)c(C)c5C(=O)C4C(=O)OC)[C@@H](CCC(=O)O/C=C(\C)CCCC(C)CCCC(C)CCCC(C)C)[C@@H]3C.[Mg+2] ; strain: LAV ; method: cytopathic effect ; tested at: 10 µg/mL ; result: 99%
CN1C(=O)[C@@H](Cc2ccccc2)NC1=S ; method: cytopathic effect / XTT ; tested at: 100 µg/mL ; result: 100%
CCCCC(=O)OC[C@H]1O[C@@H](n2cnc3c(N)ncnc32)[C@@H]1CO ; method: antigen ; tested at: 10 µg/mL ; result: 97%
CC(=O)N[C@@H](CCC(N)=O)C(=O)N[C@@H](C)C(=O)N[C@@H](CC(C)C)[C@@H](O)CC(=O)N[C@H](C(=O)N[C@H](C(N)=O)C(C)C)C(C)C ; strain: IIIB ; method: ELISA / antigen ; tested at: 200 µM ; result: 20%
N#Cc1cc(Cl)cc(Oc2cc(OCc3[nH]nc4ncccc34)ccc2Cl)c1 ; conditions: 50% human serum ; tested at: 0.052 µM ; result: >95%
O=c1[nH]c(=O)n([C@H]2C[C@H](F)[C@@H](CO)O2)cc1CN1CCOCC1 ; strain: IIIB ; method: ELISA ; tested at: 100 µM ; result: 0%
O=C(NCCc1ccccc1)Nc1ccccc1 ; method: cytopathic effect / XTT ; tested at: 1 µg/mL ; result: 0%
CCOC(=O)c1cn2c(c1O)C(=O)N(Cc1ccc(F)cc1)CC2 ; strain: IIIB ; method: p24 / ELISA ; tested at: 3.23 µM ; result: >95%
O=c1ccn([C@H]2C=CC[C@@H](CO)O2)c(=O)[nH]1 ; strain: IIIB ; method: ELISA ; tested at: 100 µM ; result: 0%
Cc1nnc(NC(=O)NCCc2ccccc2)s1 ; method: cytopathic effect / XTT ; tested at: 100 µg/mL ; result: 20%
CC[C@@H]1C=CC[C@H](n2cnc3c(N)ncnc32)O1 ; strain: IIIB ; method: ELISA ; tested at: 100 µM ; result: 0%
N#Cc1cc(Cl)cc(Oc2c(Cl)ccc3c2nnn3Cc2[nH]nc3nc(N)ccc23)c1 ; conditions: 50% human serum ; tested at: 0.036 µM ; result: >95%
COC(=O)[C@@H](NC(=O)[C@@H](NC(=O)C[C@H](O)[C@H](CC(C)C)NC(=O)[C@@H](NC(=O)[C@H](Cc1c[nH]c2ccccc12)NC(=O)OCc1ccccc1)C(C)C)C(C)C)C(C)C ; method: syncytia ; tested at: 40 µM ; result: 0%
CCC1=C(C)c2cc3nc(cc4cc(C)c(cc5[nH]c(cc1n2)c(C)c5CC)[nH]4)C(CCC(=O)O)=C3C ; strain: LAV ; method: cytopathic effect ; tested at: 10 µg/mL ; result: 97%
CC(C)CC(NC(=O)[C@H](C)NC(=O)C[C@H](O)[C@H](CC(C)C)NC(=O)[C@@H](NC(=O)[C@H](Cc1c[nH]c2ccccc12)NC(=O)OCc1ccccc1)C(C)C)[C@@H](O)CC(=O)O ; method: syncytia ; tested at: 40 µM ; result: 0%
O=c1ccn([C@@H]2C=CC[C@@H](CO)O2)c(=O)[nH]1 ; strain: IIIB ; method: ELISA ; tested at: 100 µM ; result: 0%

5 of the rows above, restated:

{"structure": "CCc1c(Sc2ccccc2)n(COCc2ccccc2)c(=O)[nH]c1=O", "strain": "A018A", "method": "p24", "tested at": "0.026 µM", "result": "90%"}
{"structure": "CCc1c(C)c2cc3[nH]c(cc4nc(c(C)c5nc(cc1[nH]2)C(C)=C5)C(CCC(=O)O)=C4C)c(C)c3CC", "strain": "LAV", "method": "cytopathic effect", "tested at": "10 µg/mL", "result": "97%"}
{"structure": "CC(=O)N(C)CCN(C)c1nc(C(=O)NCc2ccc(F)cc2)c(O)c2ncccc12", "method": "p24", "conditions": "50% human serum", "tested at": "0.625 µM", "result": ">95%"}
{"structure": "Nc1ncnc2c1ncn2[C@@H]1O[C@H](CO)[C@@H]1O", "method": "antigen", "tested at": "100 µg/mL", "result": ">99.9%"}
{"structure": "COc1ccc(-c2cc(-c3ccc4ccc5cccc6ccc3c4c56)c(C#N)c(N)n2)cc1", "strain": "IIIB", "method": "ELISA / antigen", "tested at": "100 µM", "result": "<30%"}